Library screen at single concentrations

Mtb glucose medium: 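Phenotypic screen: M. tuberculosis growth, glucose 7H9 medium, 3 days; the read-out is not stated. Tested at 500 µM. Direction is inferred from retests: higher values go with more growth inhibition. About 18,000 compounds were tested under these conditions; 7.9% (about 1,400) showed 50% or more at least once.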
Mtb cholesterol medium: 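Phenotypic screen: M. tuberculosis growth, cholesterol and DPPC medium, 4 days; the read-out is not stated. Compounds at 500 µM. Higher reads as more growth inhibition (inferred: compounds with an IC50 in retests scored well above the rest). About 18,000 compounds were tested under these conditions; 5% (about 900) showed 50% or more at least once.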

Each number is a percent effect as filed.
How 0% and 100% were set is not recorded. Most values in the screen are low, and negative values occur.
The entries come from a sample that favours strong results.

* CCN1CCN(CC(C)CNc2ncccc2Cl)CC1 (centres undefined) | Mtb glucose medium: 19.79%
* COCCn1cc(C(C)N)cn1 (centres undefined) | Mtb glucose medium: 0.3466%
* Cc1nn(C)c(C)c1S(=O)(=O)N[C@@H]1C=C[C@H](CO)C1 | Mtb glucose medium: 6.221%
* CCNCc1cc(Cl)c(OCC(N)=O)c(OC)c1 | Mtb glucose medium: 10.84%; Mtb cholesterol medium: 11.49%
* CC(C)(CNC(=O)c1nccnc1N)N1CCOCC1 | Mtb glucose medium: 11.77%
* N#CCc1ccc2c(c1)CCO2 | Mtb glucose medium: 5.442%
* NCc1ccc(-c2nc3cnccc3o2)cc1 | Mtb cholesterol medium: 14.41%
* CCCS(=O)(=O)NCC(O)Cc1ccccc1 (centres undefined) | Mtb glucose medium: 69.93%
* Cc1ccccc1C1(O)CCNC1 (centres undefined) | Mtb glucose medium: -13.62%
* CC(=O)c1ccc(C(=O)NC2CCCCNC2=O)s1 (centres undefined) | Mtb glucose medium: 4.03%
* Cc1ccc(NC(=O)CCNS(C)(=O)=O)c(F)c1 | Mtb cholesterol medium: -0.5046%
* Cn1cccc1C(=O)NCC(C)(O)c1cccs1 (centres undefined) | Mtb glucose medium: -4.016%
* O=C(NCCNCC1(O)CCNC1)c1ccccc1Cl (centres undefined) | Mtb glucose medium: 12.22%
* N[C@@H]1CCO[C@H]1c1cncc(Br)c1 | Mtb glucose medium: 11.95%
* Cc1noc(C)c1CN1CCCC(CNS(C)(=O)=O)C1 (centres undefined) | Mtb glucose medium: 13.89%
* NC(=O)CC1CNC1 | Mtb cholesterol medium: -1.029%
* CCNC(=O)c1ccc(CNC(C)=O)cc1 | Mtb glucose medium: 0.6495%
* CN1CCCCC1C(=O)N1CCOC2(CCCC2)C1 (centres undefined) | Mtb glucose medium: 1.385%
* COc1ccccc1NC(=O)N1CCCN(C)CC1 | Mtb glucose medium: 15.16%
* CC(Cc1ccco1)NC(=O)Cn1cc(Br)ccc1=O (centres undefined) | Mtb glucose medium: 26.11%
* COCc1nc(CNc2nc(N)ncc2C)no1 | Mtb glucose medium: 3.715%
* CCOc1ncc(C(=O)NCC(C)(O)C(C)C)cc1Cl (centres undefined) | Mtb glucose medium: 70.99%; Mtb cholesterol medium: 79.73%
* CCn1ncnc1CN1CCCCC1c1ccccn1 (centres undefined) | Mtb cholesterol medium: 8.516%
* O=C(c1cc(C2CC2)on1)N1CCCN(C2CC2)CC1 | Mtb glucose medium: 55.5%
* C[C@@H]1NCC[C@@H]1NC(=O)OC(C)(C)C | Mtb glucose medium: -0.212%
* O=C(CNc1ccc(Br)cc1)NCc1ncc[nH]1 | Mtb glucose medium: 60.07%; Mtb cholesterol medium: 29.74%
* NC1CCN(c2cccs2)CC1 | Mtb glucose medium: 39.01%
* CC(O)CN1CCN(c2ncnc3c2CCC3)CC1 (centres undefined) | Mtb glucose medium: 5.911%
* O=C(Cc1ccc(Cl)cc1Br)NC(CO)CO | Mtb glucose medium: 20.11%; Mtb cholesterol medium: 4.397%
* CCCNC(=O)CSc1nnc(NCC2CCCO2)s1 (centres undefined) | Mtb glucose medium: 10.77%; Mtb cholesterol medium: 8.722%
* COC(=O)Cn1c(=O)oc2ccccc21 | Mtb glucose medium: 11.73%; Mtb cholesterol medium: -14.29%
* COC(=O)[C@@H]1C[C@@H](O)CN1Cc1ncc(C(C)(C)C)o1 | Mtb glucose medium: -13.03%; Mtb cholesterol medium: 72.93%
* CN(C)c1ncc(CN2CCC(O)(CO)C2)cn1 (centres undefined) | Mtb glucose medium: 5.748%
* COCc1ccccc1CNC(=O)Nc1ncnn1C | Mtb glucose medium: 9.52%

Measurements from “University of Dundee, Small-Polar-MMV Screening Library” (2021), ChEMBL document CHEMBL3988442.